Anti-infective test results gathered from many reports (values: NIAID ChemDB through PubChem).

Common to all: growth or infection tests; species: Candida albicans

An empty or dashed field is not shown.

compound,strain or isolate,read-out,read by,result
CCC(C)CC(C)CCCCCCCCC(=O)N[C@H]1C[C@@H](O)[C@H](NCCN)NC(=O)[C@@H]2[C@@H](O)CCN2C(=O)[C@H]([C@H](O)CCN)NC(=O)[C@H]([C@H](O)[C@@H](O)c2ccc(O)cc2)NC(=O)[C@@H]2C[C@@H](O)CN2C(=O)[C@H]([C@@H](C)O)NC1=O,Clinical isolates,MIC,,0.029 µg/mL
Cc1ccc(-n2nc(C)c(C3CC(=O)N(c4ccc(F)cc4)C4=C3C(=O)CC(C)(C)C4)c2Cl)cc1,MTCC 227,MIC,broth dilution,1000 µg/mL
CSc1nc2ccccc2c(=O)n1/N=C1\C(=O)N(CN2CCOCC2)c2ccc(Br)cc21,,MIC,,78.12 µg/mL
CCCCCCCCCCCC[N+](C)(C)COC(C)CCC,ATCC 10231,MIC,,143 µM
COc1ccc(C(Cc2cccc(Cl)c2)n2ccnc2)cc1,34 strains,MIC90,,256 µg/mL
OC(Cn1cncn1)(Cn1c(/C=C/c2ccccc2)nc2ccccc21)c1ccc(F)cc1F,,MIC,,3.125–6.25 µg/mL
C[C@@H](N1CCN(Cc2cn(Cc3ccc(Cl)cc3)c3c(Cl)cccc23)CC1)[C@](O)(Cn1cncn1)c1ccc(F)cc1F,ATCC 64548,MIC80,resazurin,0.125 µg/mL
Cc1c(Cl)[n+](=O)c2cc(Cl)ccc2n1[O-],Clinical isolate 9,MIC,,15.6 µg/mL
CCCCCCCCCCSC[N+](C)(C)CCCCCCCC,ATCC 10231,MIC,,132 µM
CCC/C=C/C=C/C=C/C(=O)OCC1O[C@@H](OC2C(CO)O[C@]3(OCc4cc(O)cc(O)c43)[C@H](O)[C@H]2OC(=O)/C=C/C=C/CC(O)/C=C/C=C/C=C/CCC)[C@H](O)[C@@H](O)[C@H]1O,83-2-14,MIC,,0.1 µg/mL
COc1cc2ccnc3c2c(c1OC(=O)c1ccc(OC(F)(F)F)cc1)N(C)C=C3,,EC50,,>15 µg/mL
Cc1nn(-c2cccc(Cl)c2)c(Cl)c1C1CC(=O)N(c2ccc(F)cc2)C2=C1C(=O)CC(C)(C)C2,MTCC 227,MIC,broth dilution,1000 µg/mL
CCCCCCC(Cn1ccnc1)c1ccccc1Cl,,MIC,,10 µg/mL
COc1ccc(S(=O)(=O)Nc2ccc3c(c2)Sc2ccccc2O3)cc1,C316,MIC,,6 µg/mL
CCCCCCCCCCCC[N+](C)(C)COCCC(C)C,ATCC 10231,MIC,,28.6 µM
COc1cc2ccnc3c2c(c1OC(=O)c1ccc(CCl)cc1)N(C)C=C3,,EC50,,>15 µg/mL
CCCC(Cn1ccnc1)c1ccc(Cl)cc1,,MIC,,100 µg/mL
CCCCCCCCCCCC[N+](C)(C)CSCCCCCCCC,ATCC 10231,MBC,,24.5 µM
CSc1nc2ccccc2c(=O)n1/N=C1\C(=O)N(CN(C)C)c2ccc(Br)cc21,,MIC,,156 µg/mL
Cc1c(Sc2ccccc2)[n+](=O)c2cc(C(F)(F)F)ccc2n1[O-],Clinical isolate 8,MIC,,31.25 µg/mL
COc1ccc(C(Cc2cccc(-n3cccc3)c2)n2ccnc2)cc1,34 strains,Geometric mean MIC,,156 µg/mL
CCC(C)n1ncn(-c2ccc(N3CCN(c4ccc(OC[C@H]5CO[C@](Cn6cncn6)(c6ccc(Cl)cc6Cl)O5)cc4)CC3)cc2)c1=O,63 isolates,MIC90,,0.015 µg/mL
COc1ccc(N2C(=O)CC(c3c(C)nn(-c4ccccc4)c3Cl)C3=C2CCCC3=O)cc1,MTCC 227,MIC,broth dilution,500 µg/mL
COc1cc2ccnc3c2c(c1OC(=O)c1ccc(C)cc1)N(C)C=C3,,EC50,,>15 µg/mL
C[C@@H](N1CCN(Cc2cn(Cc3ccc(F)cc3F)c3ccccc23)CC1)[C@](O)(Cn1cncn1)c1ccc(F)cc1F,ATCC 90028,MIC80,resazurin,0.125 µg/mL
COc1ccc(C(Cc2ccccc2F)n2ccnc2)cc1,34 strains,MIC50,,64 µg/mL
O=C(Nc1ccc2c(c1)Sc1ccccc1O2)c1ccncc1,C316,MIC,,12 µg/mL
Cc1c(Sc2ccccc2)[n+](=O)c2cc(Cl)ccc2n1[O-],Clinical isolate 11,MIC,,31.25 µg/mL
C=CCNC(=S)Nc1ccc2c(c1)Sc1ccccc1O2,C316,MIC,,5 µg/mL
CSc1nc2ccccc2c(=O)n1/N=C1\C(=O)N(CN2CCCCC2)c2ccc(Br)cc21,,MIC,,78.12 µg/mL
COc1ccc(C(Cc2ccc(N)cc2)n2ccnc2)cc1,34 strains,MIC90,,16 µg/mL
O=C(Nc1ccc(Cl)c(Cl)c1)Nc1ccc2c(c1)Sc1ccccc1O2,C316,MIC,,0.8 µg/mL
COc1ccc(N2C(=O)CC(c3c(C)nn(-c4ccccc4)c3Cl)C3=C2CC(C)(C)CC3=O)cc1,MTCC 227,MIC,broth dilution,1000 µg/mL
COc1ccc2ncn(CC(O)(Cn3cncn3)c3ccc(F)cc3F)c2c1,,MIC,,100–200 µg/mL
CCCCCCCCCCCC[N+](C)(C)COCC(C)CC,ATCC 10231,MBC,,71.4 µM
OC(c1ccccc1)c1nccn1CC(O)(Cn1cncn1)c1ccc(F)cc1F,,MIC,,25–50 µg/mL
C[C@@H](N1CCN(Cc2cn(Cc3ccc(C(F)(F)F)cc3)c3c(F)cccc23)CC1)[C@](O)(Cn1cncn1)c1ccc(F)cc1F,ATCC MYA-1003,MIC80,resazurin,>128 µg/mL
COc1ccc(C(Cc2ccc(Cl)cc2)n2ccnc2)cc1,34 strains,MIC90,,32 µg/mL
COc1cc2ccnc3c2c(c1OC(=O)CSc1ccccc1)N(C)C=C3,,EC50,,>15 µg/mL
O=[n+]1c(Sc2ccccc2)c(CBr)n([O-])c2ccccc21,Clinical isolate 21,MIC,,31.25 µg/mL
Nc1[nH]c(=O)ncc1F,B311 (drug-resistant),MIC,,0.015 µg/mL
COc1ccc(C(Cc2ccccc2N)n2ccnc2)cc1,34 strains,MIC90,,64 µg/mL
CCCCCc1ccc(C(=O)Oc2c(OC)cc3ccnc4c3c2N(C)C=C4)cc1,,MIC,,10 µg/mL
COc1ccc(C(Cc2cccc(F)c2)n2ccnc2)cc1,34 strains,Geometric mean MIC,,151.2 µg/mL
C[C@H]1[C@H](O)[C@@H](C)/C=C/C=C/C=C/C=C/C=C/C=C/C=C/[C@H](O[C@@H]2O[C@H](C)[C@@H](O)[C@H](N)[C@@H]2O)C[C@@H]2O[C@](O)(C[C@@H](O)C[C@@H](O)CC[C@H](O)[C@@H](O)C[C@@H](O)CC(=O)O[C@H]1C)C[C@H](O)[C@H]2C(=O)O,13 strains (fluconazole-resistant),MIC90,,1 µg/mL
COc1cc2ccnc3c2c(c1OC(=O)c1cccc(C)c1)N(C)C=C3,,EC50,,>15 µg/mL
CCCCCCCC[N+](C)(C)COCC(CC)CCCC,ATCC 10231,MBC,,149 µM
CC(C)[C@@H](C)[C@H](O)[C@@H]1CC23CC(=O)[C@]4(O)C(=C2CC[C@@H]3[C@@H]1C)C=CC1CC(=O)CC[C@@]14C,IFM 40009,MIC,,>80 µg/mL
CSc1nc2ccccc2c(=O)n1/N=C1\C(=O)N(CN2CCCCC2)c2ccccc21,,MIC,,312.5 µg/mL
CCCCCCCCCCCC[N+](C)(C)COCC(CC)CCC,ATCC 10231,MBC,,25.5 µM
COc1ccc([C@@H](Cc2ccc(Cl)cc2Cl)n2ccnc2)cc1,34 strains,Geometric mean MIC,,3.5 µg/mL
COc1cc2ccnc3c2c(c1OC(=O)c1ccccc1C)N(C)C=C3,,EC50,,>15 µg/mL
O=C(N/N=C/c1cc([N+](=O)[O-])ccc1O)c1ccc(I)cc1,ATCC 58455,MIC,,>25 µg/mL
COc1ccccc1C1NC(c2ccccc2OC)C2(C)CCCC1/C2=N\O,,MIC90,,>128 µg/mL
OC(Cn1cncn1)(Cn1cncn1)c1ccc(F)cc1F,1866,MIC,,0.19 µg/mL
C[C@@H](N1CCN(Cc2cn(Cc3ccc(F)cc3F)c3cc(Cl)ccc23)CC1)[C@](O)(Cn1cncn1)c1ccc(F)cc1F,ATCC 90028,MIC80,resazurin,0.125 µg/mL
Cc1ccc(S(=O)(=O)NC(=O)Nc2ccc3c(c2)Sc2ccccc2O3)cc1,C316,MIC,,12 µg/mL
CCCCCCCCCCCCSC[N+](C)(C)CCCCCCCCCCCC,ATCC 10231,MIC,,215 µM
CSc1nc2ccccc2c(=O)n1/N=C1\C(=O)N(CN(C)C)c2ccccc21,,MIC,,156 µg/mL
CCCCCCCCC(Cn1ccnc1)c1ccccc1Cl,,MIC,,10 µg/mL
COc1cc2ccnc3c2c(c1OC(=O)c1ccc(C(C)(C)C)cc1)N(C)C=C3,,EC50,,6.5 µg/mL
CCC(C)CC(C)CCCCCCCCC(=O)N[C@H]1C[C@@H](O)[C@H](NCCN)NC(=O)[C@@H]2[C@@H](O)CCN2C(=O)[C@H]([C@H](O)CCN)NC(=O)[C@H]([C@H](O)[C@@H](O)c2ccc(O)cc2)NC(=O)[C@@H]2C[C@@H](O)CN2C(=O)[C@H]([C@@H](C)O)NC1=O,10 strains (fluconazole-resistant),MIC50,,0.5 µg/mL
OC(Cn1cncn1)(Cn1ccnc1-c1ccc(Cl)cc1)c1ccc(F)cc1F,,MIC,,<3.125 µg/mL
CCC(Cn1ccnc1)c1ccc(Cl)cc1Cl,,MIC,,100 µg/mL
CSc1nc2ccccc2c(=O)n1/N=C1\C(=O)N(CN2CCCCC2)c2ccc(Cl)cc21,,MIC,,156 µg/mL

The first 5 rows once more:

compound	strain or isolate	read-out	read by	result
CCC(C)CC(C)CCCCCCCCC(=O)N[C@H]1C[C@@H](O)[C@H](NCCN)NC(=O)[C@@H]2[C@@H](O)CCN2C(=O)[C@H]([C@H](O)CCN)NC(=O)[C@H]([C@H](O)[C@@H](O)c2ccc(O)cc2)NC(=O)[C@@H]2C[C@@H](O)CN2C(=O)[C@H]([C@@H](C)O)NC1=O	Clinical isolates	MIC		0.029 µg/mL
Cc1ccc(-n2nc(C)c(C3CC(=O)N(c4ccc(F)cc4)C4=C3C(=O)CC(C)(C)C4)c2Cl)cc1	MTCC 227	MIC	broth dilution	1000 µg/mL
CSc1nc2ccccc2c(=O)n1/N=C1\C(=O)N(CN2CCOCC2)c2ccc(Br)cc21		MIC		78.12 µg/mL
CCCCCCCCCCCC[N+](C)(C)COC(C)CCC	ATCC 10231	MIC		143 µM
COc1ccc(C(Cc2cccc(Cl)c2)n2ccnc2)cc1	34 strains	MIC90		256 µg/mL

Neighbouring rows are from separate reports. ECn is the concentration giving n% inhibition of infection, replication or growth. A number after MIC or MFC names an inhibition level or a share of isolates. Two numbers with a dash give a range or band.